Measured values from several laboratories, pooled; numbers as filed in NIAID ChemDB.

Shared fields: growth or infection tests; species: Herpes simplex virus 1; method: plaque count; endpoint: EC50

An empty or dashed field is not shown.

smiles,cells,strain,value
CC[C@@H](C(C)C)[C@@H](O)[C@H](O)[C@@H](C)[C@H]1CC[C@H]2[C@@H]3CC(=O)[C@@]4(O)C[C@@H](OC(C)=O)CC[C@]4(C)[C@H]3CC[C@]12C,VERO,B2006 (TK-),94.2 µM
C/C(=N\NC(=S)N(C)C)c1ccccn1,BHK-21/4,HF,0.08 µg/mL
O=C(NCc1ccc(Cl)cc1)c1c[nH]c2ccc(C#CCO)cc2c1=O,-,Patton,18 µM
CC(C)c1ccc(O)c(O)c(=O)c1,VERO,Clinical isolate,1.94 µM
Nc1nc2c(ncn2CCC(O)CO)c(=O)[nH]1,VERO,KJ502,11 µM
O=c1[nH]c(=O)n([C@H]2C[C@H](O)[C@@H](COP3(=O)OCc4cccc(-c5ccccc5)c4O3)O2)cc1/C=C/Br,VERO,B2006 (TK-),>128 µg/mL
Nc1nc2c(ncn2COC(CO)CO)c(=O)[nH]1,VERO H,5538 (DRUG-resistant),4.39 µM
Nc1nc2c(ncn2COCCO)c(=O)[nH]1,VERO,TK-,>40 µg/mL
Nc1nc2c(ncn2CCC(CO)CO)c(=O)[nH]1,MRC-5,17 isolates,0.4 µg/mL
Nc1ccn(C[C@@H](CO)OCP(=O)(O)O)c(=O)n1,MRC-5,SC16-TKDM21 (TK-),0.6 µM
C/C(=N\NC(=S)N(C)C1CCCCCC1)c1ccccn1,BHK-21/4,HF,0.21 µg/mL
Nc1nc2c(ncn2COCCO)c(=O)[nH]1,VERO,Shealey,0.7 µM
O=c1[nH]c(=O)n([C@H]2C[C@H](O)[C@@H](COP3(=O)OCc4c(ccc5ccccc45)O3)O2)cc1/C=C/Br,VERO,B2006 (TK-),>128 µg/mL
N#Cc1c(N)c(-c2ccccc2)n(COCCO)c1-c1ccccc1,VERO,-,>300 µM
Nc1ccn([C@H]2O[C@@H](CO)[C@H](O)[C@H]2F)c(=O)n1,VERO,F-FIAU-C1,6.1 µM
CC[C@@H](C(C)C)[C@@H](O)[C@H](O)[C@@H](C)[C@H]1CC[C@H]2[C@@H]3CC(=O)[C@H]4C[C@@H](Br)CC[C@]4(C)[C@H]3CC[C@]12C,VERO,F,53.3 µM
COc1cc(C(c2ccc(O)cc2)c2ccc(O)cc2)ccc1O,VERO,KOS,1.8 µg/mL
CCOc1ccc(-c2c3cc(O)c(=O)cc-3oc3cc(O)c(O)cc23)cc1,HFF,Clinical isolate,0.32 µM
Nc1nc(=O)n([C@@H]2O[C@H](CO)[C@@H](O)[C@@H]2F)cc1I,VERO,Shealey,0.5 µM
CC[C@@H](C(C)C)[C@@H](O)[C@H](O)[C@@H](C)[C@H]1CC[C@H]2[C@@H]3CC(=O)[C@H]4C[C@@H](OC(C)=O)CC[C@]4(C)[C@H]3CC[C@]12C,VERO,F,22.4 µM
Nc1nc2c(ncn2COCCO)c(=O)[nH]1,VERO,RE6,0.5 µM
CC[C@@H](C(C)C)[C@H](O)[C@@H](O)[C@@H](C)[C@H]1CC[C@H]2[C@@H]3CC(=O)[C@H]4C[C@@H](Br)CC[C@]4(C)[C@H]3CC[C@]12C,VERO,F,30.1 µM
Nc1nc2c(ncn2CCC(CO)CO)c(=O)[nH]1,MRC-5,KOS,0.7 µg/mL
Nc1ncnc2c1ncn2[C@@H]1C[C@H](CO)[C@@H](O)[C@@H]1O,VERO,F-AMAU-C2,60 µM
OCCOCn1c(-c2ccccc2)c(Br)c(-c2ccccc2)c1-c1ccccc1,VERO,-,>15 µM
Cc1cn([C@@H]2O[C@H](CO)[C@@H](O)[C@@H]2F)c(=O)[nH]c1=O,VERO,F,0.028 µM
C=C(C)[C@@H]1CCc2c(O)c(O)c(=O)cc(C)c2C1,VERO,Clinical isolate,0.35 µM
O=c1[nH]c(=O)n([C@H]2C[C@H](O)[C@@H](COP3(=O)OCc4ccc5ccccc5c4O3)O2)cc1/C=C/Br,VERO,B2006 (TK-),>128 µg/mL
CC(=O)OC[C@H]1[C@H](COC(C)=O)[C@@H](COC(C)=O)O[C@H]1n1cnc2c(N)ncnc21,MEF,Clinical isolate Wilson,123 µM
CC[C@@H](C(C)C)[C@@H](O)[C@H](O)[C@@H](C)[C@H]1CC[C@H]2[C@@H]3CC(=O)[C@@]4(O)C[C@@H](Br)CC[C@]4(C)[C@H]3CC[C@]12C,VERO,B2006 (TK-),12.9 µM
CSc1ccc(C(c2ccc(O)cc2)c2ccc(O)cc2)cc1,VERO,KOS,3.4 µg/mL
CCCCC(=O)OC[C@H]1O[C@@H](n2cnc3c(N)ncnc32)[C@@H](O)[C@@H]1O,MEF,E-377,12 µM
Cc1cc(C2CCCCC2)n(O)c(=O)c1,HFF,Clinical isolate,0.14 µM
CC(=O)OCCOCn1c(-c2ccccc2)c(-c2ccccc2)c([N+](=O)[O-])c1-c1ccccc1,VERO,-,>300 µM
C[C@@H](c1ccccc1)N(CC(=O)Nc1ccc(-c2csc(N)n2)cc1)C(=O)c1ccncc1,BHK-21/C13,KOS,0.08 µM
Oc1ccc(C(c2ccc(O)cc2)c2ccc(C(F)(F)F)cc2)cc1,VERO,KOS,4.2 µg/mL
CCOC(=O)c1c([N+](=O)[O-])c(-c2ccccc2)n(COCCOC(C)=O)c1-c1ccccc1,VERO,-,>96 µM
CC[C@@H](C(C)C)[C@@H](O)[C@H](O)[C@@H](C)[C@H]1CC[C@H]2[C@@H]3CC(=O)[C@@]4(O)C[C@H](O)[C@H](O)C[C@]4(C)[C@H]3CC[C@]12C,VERO,B2006 (TK-),>40.4 µM
C/C(=N\NC(=S)NC12CC3CC(CC(C3)C1)C2)c1ccccn1,BHK-21/4,HF,4.6 µg/mL
O=c1ccn([C@@H]2O[C@H](CO)[C@@H](O)[C@@H]2F)c(=O)[nH]1,VERO,F-FIAU-C1,>200 µM
Nc1ncnc2c1ncn2[C@@H]1C[C@H](CO)[C@@H](O)[C@@H]1O,VERO,KOS,20 µg/mL
CCOC(=O)c1c([N+](=O)[O-])c(-c2ccccc2)n(COCCO)c1C,VERO,-,>300 µM
CCOC(=O)CC1OP(=O)(OC[C@H]2O[C@@H](n3cc(/C=C/Br)c(=O)[nH]c3=O)C[C@@H]2O)Oc2cccc(Cl)c21,VERO,B2006 (TK-),>128 µg/mL
Nc1nc2c(ncn2COCCO)c(=O)[nH]1,VERO,H129,0.2 µg/mL

3 of the rows above, restated:

smiles,cells,strain,value
C=C(C)[C@@H]1CCc2c(O)c(O)c(=O)cc(C)c2C1,VERO,Clinical isolate,0.35 µM
Nc1nc2c(ncn2CCC(CO)CO)c(=O)[nH]1,MRC-5,17 isolates,0.4 µg/mL
CC[C@@H](C(C)C)[C@@H](O)[C@H](O)[C@@H](C)[C@H]1CC[C@H]2[C@@H]3CC(=O)[C@H]4C[C@@H](OC(C)=O)CC[C@]4(C)[C@H]3CC[C@]12C,VERO,F,22.4 µM

Lines come from different laboratories, so protocols vary. ECn is the concentration giving n% inhibition of infection, replication or growth.